Patent publication US20040091855A1, “Method for production of antivirals by use of HIV-derived HR1 peptides, and trimers formed therefrom” (priority 2002, published 2004)

Legend:
[1] = Oligomerization as determined by crystallography; assay type: physicochemical
[2] = Helicity by circular dichroism; assay type: physicochemical; conditions: at 10 μM, 25° C.
HIV IIIB = assay type: cell-based, HIV-1; conditions: IIIB
[3] = test system: HR2 peptide (SEQ ID NO:33); experiment: Protein chip assay (Biacore, surface plasmon resonance) of binding to HR2 peptide; design: species or system HIV-1
From the text: These include a protein chip assay (using Biacore analysis) in which surface plasmon resonance is used to detect the binding, and kinetics thereof, between a synthetic peptide and an HR2 peptide; and a fluorescence polarization assay. In the fluorescence polarization assay, a detectable moiety comprising a fluorescent dye (e.g., rhodamine and/or fluorescein) was used to label HR2 peptide, and the assay was then allowed to proceed under sufficient conditions and for a sufficient period of time for labeled peptide to bind to HR1 peptide, or synthetic peptide (or trimer formed therefrom).

[4] = test system: HR2 peptide (SEQ ID NO:33); experiment: Fluorescence polarization assay of binding to labeled HR2 peptide; design: species or system HIV-1; conditions: for HR2 peptide binding: ability to complex with HR2 peptide denoted as yes; for Binding curve with HR2 peptide (FIG. 4): fluorescence polarization, shape of the transition
[5] = Thermal stability (Tm) by CD signal at 222 nm; assay type: physicochemical; conditions: at 10 μM
[6] = Sedimentation equilibrium experiments (oligomerization state); assay type: physicochemical; conditions: in solution; for Oligomerization: peptide 1 μM to 100 μM

Structure (SMILES) | Oligomerization [1] | Helicity [2] [%] | Antiviral activity against HIV IIIB IC50 (HIV IIIB) [µg/mL] | Antiviral activity against HIV IIIB IC90 (HIV IIIB) [µg/mL] | K off [3] | K on [3] | Kd [3] [nM] | HR2 peptide binding [4] | Binding curve with HR2 peptide (FIG. 4) [4] | Stability Tm [5] | Oligomerization [6] | Oligomeric state at low concentrations ([6]; less than 50 nM)
CC[C@H](C)[C@H](NC(=O)CNC(=O)[C@H](Cc1c[nH]c2ccccc12)NC(=O)[C@@H](NC(=O)[C@@H](NC(=O)[C@H](C)NC(=O)[C@H](CCC(N)=O)NC(=O)[C@H](CC(C)C)NC(=O)[C@H](C)NC(=O)[C@H](Cc1c[nH]cn1)NC(=O)[C@H](CCC(N)=O)NC(=O)[C@@H](NC(=O)[C@H](C)NC(=O)[C@H](CCC(=O)O)NC(=O)[C@@H](NC(=O)[C@H](C)NC(=O)[C@H](CCCNC(=N)N)NC(=O)[C@H](CC(C)C)NC(=O)[C@H](CC(C)C)NC(=O)[C@H](CC(N)=O)NC(=O)[C@H](CC(N)=O)NC(=O)[C@H](CCC(N)=O)NC(=O)[C@H](CCC(N)=O)NC(=O)[C@H](CCC(N)=O)NC(=O)[C@@H](NC(=O)[C@@H](NC(=O)CNC(=O)[C@H](CO)NC(=O)[C@H](CC(C)C)NC(=O)[C@H](CC(C)C)NC(=O)[C@H](CCC(N)=O)NC(=O)[C@H](CCCNC(=N)N)NC(=O)[C@@H](NC(=O)[C@H](CCC(N)=O)NC(C)=O)[C@@H](C)CC)[C@@H](C)CC)C(C)C)[C@@H](C)CC)[C@@H](C)CC)[C@@H](C)CC)C(C)C)C(=O)N[C@@H](CCCCN)C(=O)N[C@@H](CCC(N)=O)C(=O)N[C@@H](CC(C)C)C(=O)N[C@@H](CCC(N)=O)C(=O)N[C@@H](C)C(=O)N[C@@H](CCCNC(=N)N)C(=O)N[C@H](C(=O)N[C@@H](CC(C)C)C(=O)N[C@@H](C)C(=O)N[C@H](C(=O)N[C@@H](CCC(=O)O)C(=O)N[C@@H](CCCNC(=N)N)C(=O)N[C@@H](Cc1ccc(O)cc1)C(=O)N[C@@H](CC(C)C)C(=O)N[C@@H](CCCCN)C(N)=O)C(C)C)[C@@H](C)CC [SEQ ID NO:36] | Trimer* | 90 | 0.73 | 3.03 | 3.3 × 10^−3/ | 4.3 × 10^5/ | 7.7 | Yes | cooperative transition at a narrow concentration range | >97 °C | – | –
CC[C@H](C)[C@H](NC(=O)CNC(=O)[C@H](Cc1c[nH]c2ccccc12)NC(=O)[C@@H](NC(=O)[C@@H](NC(=O)[C@H](C)NC(=O)[C@H](CCC(N)=O)NC(=O)[C@H](CC(C)C)NC(=O)[C@H](C)NC(=O)[C@H](Cc1c[nH]cn1)NC(=O)[C@H](CCC(N)=O)NC(=O)[C@H](CCC(N)=O)NC(=O)[C@H](C)NC(=O)[C@H](CCC(=O)O)NC(=O)[C@@H](NC(=O)[C@H](C)NC(=O)[C@H](CCCNC(=N)N)NC(=O)[C@H](CC(C)C)NC(=O)[C@H](CC(C)C)NC(=O)[C@H](CC(N)=O)NC(=O)[C@H](CC(N)=O)NC(=O)[C@H](CCC(N)=O)NC(=O)[C@H](CCC(N)=O)NC(=O)[C@H](CCC(N)=O)NC(=O)[C@@H](NC(=O)[C@@H](NC(=O)CNC(=O)[C@H](CO)NC(=O)[C@H](CC(C)C)NC(=O)[C@H](CC(C)C)NC(=O)[C@H](CCC(N)=O)NC(=O)[C@H](CCCNC(=N)N)NC(=O)[C@H](C)NC(=O)[C@H](CCC(N)=O)NC(C)=O)[C@@H](C)CC)C(C)C)[C@@H](C)CC)[C@@H](C)O)C(C)C)C(=O)N[C@@H](CCCCN)C(=O)N[C@@H](CCC(N)=O)C(=O)N[C@@H](CC(C)C)C(=O)N[C@@H](CCC(N)=O)C(=O)N[C@@H](C)C(=O)N[C@@H](CCCNC(=N)N)C(=O)N[C@H](C(=O)N[C@@H](CC(C)C)C(=O)N[C@@H](C)C(=O)N[C@H](C(=O)N[C@@H](CCC(=O)O)C(=O)N[C@@H](CCCNC(=N)N)C(=O)N[C@@H](Cc1ccc(O)cc1)C(=O)N[C@@H](CC(C)C)C(=O)N[C@@H](CCCCN)C(N)=O)C(C)C)[C@@H](C)CC [SEQ ID NO:32] | – | 87 | 0.59 | 1.90 | 1.9 × 10^3/ | 6.1 × 10^5 | 3.1 | Yes | cooperative transition at a narrow concentration range | Tm 69 °C | as a trimeric | monomer and trimer equilibrium
CC[C@H](C)[C@H](NC(=O)CNC(=O)[C@H](CO)NC(=O)[C@H](CC(C)C)NC(=O)[C@H](CC(C)C)NC(=O)[C@H](CCC(N)=O)NC(=O)[C@H](CCCNC(=N)N)NC(=O)[C@H](C)NC(=O)[C@H](CCC(N)=O)NC(C)=O)C(=O)N[C@H](C(=O)N[C@@H](CCC(N)=O)C(=O)N[C@@H](CCC(N)=O)C(=O)N[C@@H](CCC(N)=O)C(=O)N[C@@H](CC(N)=O)C(=O)N[C@@H](CC(N)=O)C(=O)N[C@@H](CC(C)C)C(=O)N[C@@H](CC(C)C)C(=O)N[C@@H](CCCNC(=N)N)C(=O)N[C@@H](C)C(=O)N[C@H](C(=O)N[C@@H](CCC(=O)O)C(=O)N[C@@H](C)C(=O)N[C@H](C(=O)N[C@@H](CCC(N)=O)C(=O)N[C@@H](Cc1c[nH]cn1)C(=O)N[C@@H](C)C(=O)N[C@H](C(=O)N[C@@H](CCC(N)=O)C(=O)N[C@@H](C)C(=O)N[C@@H](CC(C)C)C(=O)N[C@H](C(=O)N[C@@H](Cc1c[nH]c2ccccc12)C(=O)NCC(=O)N[C@H](C(=O)N[C@@H](CCCCN)C(=O)N[C@@H](CCC(N)=O)C(=O)N[C@@H](CC(C)C)C(=O)N[C@@H](CCC(N)=O)C(=O)N[C@@H](C)C(=O)N[C@@H](CCCNC(=N)N)C(=O)N[C@H](C(=O)N[C@@H](CC(C)C)C(=O)N[C@@H](C)C(=O)N[C@@H](CC(C)C)C(=O)N[C@@H](CCC(=O)O)C(=O)N[C@@H](CCCNC(=N)N)C(=O)N[C@@H](Cc1ccc(O)cc1)C(=O)N[C@H](C(=O)N[C@@H](CCCCN)C(=O)N[C@@H](CC(=O)O)C(=O)N[C@@H](CCC(N)=O)C(N)=O)[C@@H](C)CC)C(C)C)C(C)C)C(C)C)C(C)C)[C@@H](C)O)[C@@H](C)CC)C(C)C [SEQ ID NO:38] | – | 79 | 0.18 | 0.88 | – | – | – | Yes | – | Tm 90 °C | Trimer* | –
CC[C@H](C)[C@H](NC(=O)CNC(=O)[C@H](Cc1c[nH]c2ccccc12)NC(=O)[C@@H](NC(=O)[C@@H](NC(=O)[C@H](C)NC(=O)[C@H](CCC(N)=O)NC(=O)[C@H](CC(C)C)NC(=O)[C@H](CC(C)C)NC(=O)[C@H](Cc1c[nH]cn1)NC(=O)[C@H](CCC(N)=O)NC(=O)[C@H](CCC(N)=O)NC(=O)[C@H](C)NC(=O)[C@H](CCC(=O)O)NC(=O)[C@@H](NC(=O)[C@H](C)NC(=O)[C@H](CCCNC(=N)N)NC(=O)[C@H](CC(C)C)NC(=O)[C@H](CC(C)C)NC(=O)[C@H](CC(N)=O)NC(=O)[C@H](CC(N)=O)NC(=O)[C@H](CCC(N)=O)NC(=O)[C@H](CCC(N)=O)NC(=O)[C@H](CCC(N)=O)NC(C)=O)[C@@H](C)CC)[C@@H](C)O)C(C)C)C(=O)N[C@@H](CCCCN)C(=O)N[C@@H](CCC(N)=O)C(=O)N[C@@H](CC(C)C)C(=O)N[C@@H](CCC(N)=O)C(=O)N[C@@H](C)C(=O)N[C@@H](CCCNC(=N)N)C(=O)N[C@H](C(=O)N[C@@H](CC(C)C)C(=O)N[C@@H](C)C(=O)N[C@H](C(=O)N[C@@H](CCC(=O)O)C(=O)N[C@@H](CCCNC(=N)N)C(=O)N[C@@H](Cc1ccc(O)cc1)C(=O)N[C@@H](CC(C)C)C(=O)N[C@@H](CCCCN)C(=O)N[C@@H](CC(=O)O)C(=O)N[C@@H](CCC(N)=O)C(N)=O)C(C)C)[C@@H](C)CC [SEQ ID NO:48] | – | 72 | 0.89 | – | – | – | – | Yes | – | Tm 68 °C | as a trimeric | –
